Measured values from several laboratories, pooled; numbers as filed in NIAID ChemDB.

Inhibition is in % at the dose shown (toxicity tests: loss of growth or viability). MIC bound: limit read from a one-dose screen. Conditions beyond the fields shown may differ between rows. ICn is the concentration giving n% inhibition. Blank or dashed fields: not listed here. ECn: concentration that inhibits the pathogen or its effect by n%. A number after MIC or MFC names an inhibition level or a share of isolates.

structure,changes,dose,target,cells,strain,agent,endpoint,read by,kind,value
CC(=O)N[C@H]1[C@H]([C@H](O)[C@H](O)CO)OC(C(=O)O)=C[C@@H]1N=C(N)N,,,,MDCK,H1N1 A/TEXAS/36/91,Influenza A virus,EC50,visual reading,culture,0.14 µM
CCCCC(CC)CN1CN(CC(CC)CCCC)CC(C)(NCCNC2CCCC(C)C2C)C1,,,,,,Mycobacterium tuberculosis,MIC,,culture,50 µM
CC(=O)Nc1ccc(N)cc1,,,,,H37Rv,Mycobacterium tuberculosis,MIC,,culture,>100 µg/mL
NS(=O)(=O)c1ccc(CCNc2nnc(NC(=O)c3ccc4c(c3)C(=O)OC4=O)s2)cc1,,,Polymerase,,,Human cytomegalovirus,IC50,,target,<25 µM
CCSC(SCC)[C@H](O)[C@H](O)[C@@H](O)[C@H](C)O,,6.25 µg/mL,,,H37Rv,Mycobacterium tuberculosis,inhibition,resazurin,culture,3%
O=C(Nc1nnc(NCc2ccc3c(c2)OCO3)s1)c1ccc(I)cc1,,,Polymerase,,,Human cytomegalovirus,IC50,,target,>25 µM
CCOC(=O)c1nc(Cl)n(-c2ccc([N+](=O)[O-])cc2)n1,,,,,H37Rv,Mycobacterium tuberculosis,MIC,,culture,>100 µg/mL
CCOC(=O)c1c(C)nc(NCCCNc2ccnc3cc(Cl)ccc23)nc1-c1ccccc1,,,,,27JF,Cryptococcus neoformans,MIC99,,culture,4 µg/mL
Cc1ccc(C(=O)N/N=C/C(=O)O)cc1,,,,,H37Rv,Mycobacterium tuberculosis,MIC bound,BACTEC,culture,>12.5 µg/mL
CCO/N=C/c1ccc(OCCC2CCN(c3ccc(C)nn3)CC2)cc1,,,,KB,6669-CV39 (ICAM-1 receptor group 61),Rhinovirus,EC50,neutral red,culture,0.073 µM
COC(=O)c1ccc(CSc2ccccc2NC(=S)Nc2cccc(SC)c2)o1,,12.5 µg/mL,,,H37Rv,Mycobacterium tuberculosis,inhibition,BACTEC,culture,-58%
CC(=O)Nc1ccc(NS(=O)(=O)c2ccc(C)cc2)cc1Cl,,,,,H37Rv,Mycobacterium tuberculosis,MIC,,culture,>100 µg/mL
O=CNNC(=O)CN1C(=O)c2ccccc2C1=O,,,,,H37Rv,Mycobacterium tuberculosis,MIC bound,BACTEC,culture,>12.5 µg/mL
CCOC(=O)c1c(C)nc(NCCCCNc2ccnc3cc(Cl)ccc23)nc1-c1ccccc1[N+](=O)[O-],,,,,547/OTTI-97-PI-10,Cryptococcus gattii,MIC99,,culture,16 µg/mL
NC(=O)c1cc(Br)ccc1O,,,,,H37Rv,Mycobacterium tuberculosis,MIC,,culture,>100 µg/mL
Cc1ccnc2c1NC(=O)c1cccnc1N2C1CC1,RT-M41L T215Y Y181C,,,MT-4,,HIV-1,EC95,,culture,>3 µM
COc1ccc(-c2cncc(N3CCN(c4ccc(C(C)=O)cc4)CC3)n2)cc1F,,,UL97 kinase,,,Cytomegalovirus,IC50,,target,<10 µM
Nc1cccc([N+](=O)[O-])c1,,,,,H37Rv,Mycobacterium tuberculosis,MIC,,culture,>100 µg/mL
C#CC[C@@H](C(=O)N[C@H](/C=C/C(=O)OCC)C[C@@H]1CCNC1=O)n1cccc(NC(=O)c2cc(C)on2)c1=O,,,,H1-HELA,Serotype 39,Rhinovirus,EC90,cytopathic effect / XTT,culture,0.088 µM
COc1ccccc1C(=O)Nc1nnc(NCCC(c2ccccc2)c2ccccc2)s1,,,Polymerase,,,Human cytomegalovirus,IC50,,target,>25 µM
O=C1CCC2OC3CCC(=O)N3CN12,,6.25 µg/mL,,,H37Rv,Mycobacterium tuberculosis,inhibition,resazurin,culture,1%
Oc1ccccc1N=Cc1ccccc1,,,,,ATCC 24067,Cryptococcus neoformans,MIC99,,culture,5.7 µg/mL
Cc1ccc(Sc2ccccc2N)cc1,,,,,H37Rv,Mycobacterium tuberculosis,MIC,,culture,100 µg/mL
O=C(Nc1nnc(NCc2ccc(Cl)c(Cl)c2)s1)c1ccc2c(c1)C(=O)OC2=O,,,Polymerase,,,Human cytomegalovirus,IC50,,target,<25 µM
OC1CCC(O)CC1,,,,,H37Rv,Mycobacterium tuberculosis,MIC,,culture,>100 µg/mL
Cc1cccc(-c2cncc(N3CCN(c4ccccc4F)CC3)n2)c1C,,10 µM,UL97 kinase,,,Cytomegalovirus,inhibition,,target,>15%
Fc1ccc(N2CCCCC2)c(NC(=S)c2ccncc2)c1,,10 µM,LKB1,,,,inhibition,kinase activity,host protein,-3%
Cc1cc(C)cc(-c2cncc(N3CCN(c4ccc(Cl)c(Cl)c4)CC3)n2)c1,,10 µM,UL97 kinase,,,Cytomegalovirus,inhibition,,target,>15%
Oc1ccccc1N=Cc1ccc(F)cc1,,,,,ATCC 24067,Cryptococcus neoformans,MIC99,,culture,4 µg/mL
Br.COc1ccc2nc(-c3ccccc3)cc(C(=O)CBr)c2c1,,,,,H37Rv,Mycobacterium tuberculosis,MIC,,culture,>100 µg/mL
CC(=O)C1(C)C(=O)N(c2ccc(Cl)cc2)C(=O)N1c1ccc(Cl)cc1,,,,,H37Rv,Mycobacterium tuberculosis,MIC bound,BACTEC,culture,>12.5 µg/mL
CCCCCCCCCCCNCCNCc1ccc(C)cc1,,,,,,Mycobacterium tuberculosis,MIC,,culture,50 µM
C=C(CO)C(=O)OC1CC(=C)C2CC(O)C(C)C2C2OC(=O)C(=C)C12.CO,,,,,H37Rv,Mycobacterium tuberculosis,MIC bound,BACTEC,culture,>12.5 µg/mL
CCOC(=O)c1c(C)nc(NCCCCNc2ccnc3cc(Cl)ccc23)nc1-c1ccccc1,,,,,ATCC 24065,Cryptococcus gattii,MIC99,,culture,8 µg/mL
CSc1nc(C)cc(NCCCCCCN)n1.Cl,,,,,H37Rv,Mycobacterium tuberculosis,MIC,,culture,>100 µg/mL
Cc1ccc2cccc(CC(=O)NN)c2c1,,,,,H37Rv,Mycobacterium tuberculosis,MIC bound,BACTEC,culture,>12.5 µg/mL
CC(CNCCNCCCCc1ccccc1)c1ccccc1,,,,,,Mycobacterium tuberculosis,MIC,,culture,25 µM
CC(=O)C1C(=O)C=C(C)OC1=O,,,,,H37Rv,Mycobacterium tuberculosis,MIC,,culture,>100 µg/mL
O=[n+]1c2c(n([O-])c3ccccc31)-c1cccc3cccc-2c13,,6.25 µg/mL,,,H37Rv,Mycobacterium tuberculosis,inhibition,resazurin,culture,11%
Oc1ccccc1N=Cc1ccc2c(c1)OCO2,,,,,ATCC 24065,Cryptococcus gattii,MIC99,,culture,8 µg/mL
CCOC(=O)c1c(-c2ccccc2)[nH]c2ccc(OC)cc2c1=O,,,,,H37Rv,Mycobacterium tuberculosis,MIC,,culture,>100 µg/mL
COc1ccc(CCNCCNCCCN2CCCC2=O)cc1,,,,,,Mycobacterium tuberculosis,MIC,,culture,25 µM
CN1c2ccccc2SC12C(=O)N(c1ccccc1)C(=O)N2c1ccccc1,,,,,H37Rv,Mycobacterium tuberculosis,MIC,BACTEC,culture,≥12.8 µg/mL
CC(C)c1cc(C(C)C)c(C(=O)Nc2nnc(NC3CCN(Cc4ccccc4)CC3)s2)c(C(C)C)c1,,,Polymerase,,,Human cytomegalovirus,IC50,,target,>25 µM
CCCCC(CC)CN1CN(CC(CC)CCCC)CC(C)(NCCNCCCc2ccccc2)C1,,,,,,Mycobacterium tuberculosis,MIC,,culture,25 µM
COC(=O)CNC(=O)Cc1ccccc1,,,,,H37Rv,Mycobacterium tuberculosis,MIC,,culture,>100 µg/mL
CCCCc1c(C#N)c(=O)n2c(N)c(C(=O)OCC)cnc2c1SC,,,,,H37Rv,Mycobacterium tuberculosis,MIC bound,resazurin,culture,>6.25 µg/mL
c1ccc(C(CCNCCN2CCCCC2)c2ccccc2)cc1,,,,,,Mycobacterium tuberculosis,MIC,,culture,50 µM
OCc1cccs1,,,,,H37Rv,Mycobacterium tuberculosis,MIC,,culture,>100 µg/mL
CSc1ccccc1-c1cncc(N2CCN(c3ccccn3)CC2)n1,,,UL97 kinase,,,Cytomegalovirus,IC50,,target,<100 µM
CCOC(=O)c1c(C)nc(NCCCCNc2ccnc3cc(Cl)ccc23)nc1-c1ccc(F)cc1,,,,,LMM 818,Cryptococcus gattii,MIC99,,culture,11.3 µg/mL
O=C(O)c1cnccn1,,12.5 µg/mL,,,H37Rv,Mycobacterium tuberculosis,inhibition,BACTEC,culture,7%
COc1ccc(N2CCN(c3cncc(-c4cc(C)cc(C)c4)n3)CC2)cc1OC,,,UL97 kinase,,,Cytomegalovirus,IC50,,target,<100 µM
CCCCCCCCCCCNCCNCc1ccc(C(F)(F)F)cc1,,,,,,Mycobacterium tuberculosis,MIC,,culture,25 µM
C/C(=C/c1c(Br)cc(Br)c(N)c1Br)C(=O)O,,,,,H37Rv,Mycobacterium tuberculosis,MIC,,culture,>100 µg/mL
COc1cc(C[C@H](C)[C@H](C)Cc2ccc(O)c(O)c2)ccc1O,,,,,CCC 131-2000,Candida lusitaniae,MIC80,broth dilution,culture,62.5 µg/mL
COc1cc(OC)c(C(=O)c2cc(Cl)c(C)cc2O)c(C(=O)O)c1,,,,,H37Rv,Mycobacterium tuberculosis,MIC,,culture,>100 µg/mL
COc1ccc(CC2=NCCc3cc(OC)c(OC)cc32)cc1OC,,,,,H37Rv,Mycobacterium tuberculosis,MIC bound,BACTEC,culture,>12.8 µg/mL
NS(=O)(=O)c1ccc(CNc2nnc(NC(=O)/C=C/c3ccccc3)s2)cc1,,,Polymerase,,,Human cytomegalovirus,IC50,,target,<25 µM
COc1ccc(N2CCN(c3cncc(-c4ccccc4)n3)CC2)cc1,,10 µM,UL97 kinase,,,Cytomegalovirus,inhibition,,target,>15%
O=c1c2cc(Cl)ccc2nc2n1OCC2,,12.5 µg/mL,,,H37Rv,Mycobacterium tuberculosis,inhibition,BACTEC,culture,-1%
O=C(Nc1nnc(NC2CCN(Cc3ccccc3)CC2)s1)c1ccc([N+](=O)[O-])o1,,,Polymerase,,,Human cytomegalovirus,IC50,,target,>25 µM
Cc1ccc(-c2cncc(N3CCN(c4ccccn4)CC3)n2)cc1,,1 µM,UL97 kinase,,,Cytomegalovirus,inhibition,,target,<50%
C1CCNCC1.S=C(S)N1CCCCC1,,,,,INH-r,Mycobacterium tuberculosis,MIC,,culture,1.6 µg/mL
Nc1ccccc1I,,,,,H37Rv,Mycobacterium tuberculosis,MIC,,culture,>100 µg/mL
C=CCc1ccc(O)c(OC)c1,,,,,2557,Candida tropicalis,MIC90,turbidity,culture,495 µg/mL
O=C(N/N=C/c1cc(=O)[nH]c(=O)[nH]1)c1ccccc1,,,,,H37Rv,Mycobacterium tuberculosis,MIC bound,BACTEC,culture,>12.5 µg/mL
OC1(C#CC2(O)CCC3CCCCC3C2)CCCCC1,,,,,H37Rv,Mycobacterium tuberculosis,MIC,,culture,>100 µg/mL
COc1ccc2[nH]cc(CCNCCNCc3cccc(C)c3)c2c1,,,,,,Mycobacterium tuberculosis,MIC,,culture,50 µM
Cc1ccc(S(=O)(=O)NNC(=O)c2cc(C)c(C)cc2NCC(O)C(O)C(O)CO)cc1,,,,,H37Rv,Mycobacterium tuberculosis,MIC bound,BACTEC,culture,>12.5 µg/mL
COc1ccc(-c2cncc(N3CCC(c4ccccc4)CC3)n2)cc1F,,,UL97 kinase,,,Cytomegalovirus,IC50,,target,<100 µM
O=S(=O)(O)c1ccc2cc(O)ccc2c1,,,,,H37Rv,Mycobacterium tuberculosis,MIC,,culture,>100 µg/mL
Oc1ccccc1N=Cc1ccc(O)c(O)c1O,,,,,ATCC 32608,Cryptococcus gattii,MIC99,,culture,11.3 µg/mL
CCOC(=O)c1nc2cc(F)c(F)cc2nc1NCc1cc(OC)c(OC)c(OC)c1,,6.25 µg/mL,,,H37Rv,Mycobacterium tuberculosis,inhibition,BACTEC,culture,19%
O=C(O)CSc1c(O)c(SCC(=O)O)c(SCC(=O)O)c(O)c1SCC(=O)O,,,,,H37Rv,Mycobacterium tuberculosis,MIC,,culture,>100 µg/mL
C[N+](C)(C)CC(=O)N/N=C/c1oc(-c2cccc([N+](=O)[O-])c2)c(-c2cccc([N+](=O)[O-])c2)c1[N+](=O)[O-].[Cl-],,,,,H37Rv,Mycobacterium tuberculosis,MIC bound,BACTEC,culture,>12.5 µg/mL
CC(=O)Nc1ccc(/C=N/NC(N)=S)cc1,,,,,H37Rv,Mycobacterium tuberculosis,MIC,,culture,3.12 µg/mL
CCCCNC(=O)c1cc2c(cc1Cl)Sc1nccn1S2(=O)=O,,6.25 µg/mL,,,H37Rv,Mycobacterium tuberculosis,inhibition,resazurin,culture,-18%
O=C(Nc1nnc(NCCc2cccs2)s1)c1ccc(F)cc1F,,,Polymerase,,,Human cytomegalovirus,IC50,,target,>25 µM

For reference, 11 entries again:

| structure | changes | dose | target | cells | strain | agent | endpoint | read by | kind | value |
|---|---|---|---|---|---|---|---|---|---|---|
| O=[n+]1c2c(n([O-])c3ccccc31)-c1cccc3cccc-2c13 |  | 6.25 µg/mL |  |  | H37Rv | Mycobacterium tuberculosis | inhibition | resazurin | culture | 11% |
| COc1cc(OC)c(C(=O)c2cc(Cl)c(C)cc2O)c(C(=O)O)c1 |  |  |  |  | H37Rv | Mycobacterium tuberculosis | MIC |  | culture | >100 µg/mL |
| O=C(Nc1nnc(NC2CCN(Cc3ccccc3)CC2)s1)c1ccc([N+](=O)[O-])o1 |  |  | Polymerase |  |  | Human cytomegalovirus | IC50 |  | target | >25 µM |
| COc1ccc(-c2cncc(N3CCC(c4ccccc4)CC3)n2)cc1F |  |  | UL97 kinase |  |  | Cytomegalovirus | IC50 |  | target | <100 µM |
| NS(=O)(=O)c1ccc(CNc2nnc(NC(=O)/C=C/c3ccccc3)s2)cc1 |  |  | Polymerase |  |  | Human cytomegalovirus | IC50 |  | target | <25 µM |
| Oc1ccccc1N=Cc1ccc2c(c1)OCO2 |  |  |  |  | ATCC 24065 | Cryptococcus gattii | MIC99 |  | culture | 8 µg/mL |
| COC(=O)CNC(=O)Cc1ccccc1 |  |  |  |  | H37Rv | Mycobacterium tuberculosis | MIC |  | culture | >100 µg/mL |
| CCOC(=O)c1c(C)nc(NCCCCNc2ccnc3cc(Cl)ccc23)nc1-c1ccccc1 |  |  |  |  | ATCC 24065 | Cryptococcus gattii | MIC99 |  | culture | 8 µg/mL |
| Oc1ccccc1N=Cc1ccc(F)cc1 |  |  |  |  | ATCC 24067 | Cryptococcus neoformans | MIC99 |  | culture | 4 µg/mL |
| CC(CNCCNCCCCc1ccccc1)c1ccccc1 |  |  |  |  |  | Mycobacterium tuberculosis | MIC |  | culture | 25 µM |
| CCCCCCCCCCCNCCNCc1ccc(C(F)(F)F)cc1 |  |  |  |  |  | Mycobacterium tuberculosis | MIC |  | culture | 25 µM |